Anti-infective test results gathered from many reports (values: NIAID ChemDB through PubChem).

Common to all: growth or infection tests

An empty or dashed field is not shown.

structure	strain or isolate	dose	cell line	organism	endpoint	value
CCCC(CCC)C(NC(C)=O)C1C(N=C(N)N)CC(C(=O)O)C1O	H5N1 A/duck/MN/1525/81	-	MDCK	Influenza A virus	EC50	0.02 µM
CC[C@H](O)C1=C[C@@H](n2cnc3c(N)ncnc32)[C@H](O)[C@@H]1O	H2N2 X31	-	MDCK	Influenza A virus	EC50	>250 µg/mL
CC1(CO)CCC(Cn2nnc3c(Cl)ncnc32)C1(C)C	JAPAN/305/57	-	MDCK	Influenza A virus (H2N2)	EC50	>250 µg/mL
C=C[C@@H](O)C1=C[C@@H](n2cnc3c(N)ncnc32)[C@H](O)[C@@H]1O	H2N2 X31	-	MDCK	Influenza A virus	EC50	>50 µg/mL
CC1(CO)CCC(Cn2cnc3c(Cl)nc(N)nc32)C1(C)C	JAPAN/305/57	-	MDCK	Influenza A virus (H2N2)	EC50	>50 µg/mL
COc1ccc2cc1Oc1ccc(cc1)CC1c3cc(c(OC)cc3CCN1C)Oc1c(OC)c(OC)c(OC)c3c1C(C2)N(C)CC3	A/Weybridge	-	CEF	Influenza A virus	EC50	>20 µM
CC1(CO)CCC(Cn2nnc3c(=O)[nH]c(N)nc32)C1(C)C	JAPAN/305/57	-	MDCK	Influenza A virus (H2N2)	EC50	>50 µg/mL
CC(NCNc1ccc2ccccc2c1)C(=O)O	A2/ADACHI	244 µg/mL	CEF	Influenza A virus (H2N2)	inhibition	29.6%
CC[C@@H](O)C1=C[C@@H](n2cnc3c(N)ncnc32)[C@H](O)[C@@H]1O	H2N2 X31	-	MDCK	Influenza A virus	EC50	>250 µg/mL
CC(=O)N[C@H]1[C@H]([C@H](O)[C@H](O)CO)OC(C(=O)O)=C[C@@H]1N=C(N)N	H11N9 A/DK/MEM/546/74	-	MDCK	Influenza A virus	EC50	0.0065 µM
CC1(CO)CCC(Cn2cnc3c(=O)[nH]cnc32)C1(C)C	JAPAN/305/57	-	MDCK	Influenza A virus (H2N2)	EC50	>250 µg/mL
CC1(CO)CCC(Cn2cnc3c(=O)[nH]c(N)nc32)C1(C)C	JAPAN/305/57	-	MDCK	Influenza A virus (H2N2)	EC50	>50 µg/mL
CC(=O)N[C@H]1[C@H]([C@H](O)[C@H](O)CO)OC(C(=O)O)=C[C@@H]1N=C(N)N	H5N1 A/duck/MN/1525/81	-	MDCK	Influenza A virus	EC50	0.2 µM
CC1(CO)CCC(Cn2ccc(=O)[nH]c2=O)C1(C)C	JAPAN/305/57	-	MDCK	Influenza A virus (H2N2)	EC50	>100 µg/mL

Again, the opening 2 rows:

{"structure": "CCCC(CCC)C(NC(C)=O)C1C(N=C(N)N)CC(C(=O)O)C1O", "strain or isolate": "H5N1 A/duck/MN/1525/81", "cell line": "MDCK", "organism": "Influenza A virus", "endpoint": "EC50", "value": "0.02 µM"}
{"structure": "CC[C@H](O)C1=C[C@@H](n2cnc3c(N)ncnc32)[C@H](O)[C@@H]1O", "strain or isolate": "H2N2 X31", "cell line": "MDCK", "organism": "Influenza A virus", "endpoint": "EC50", "value": ">250 µg/mL"}

Inhibition is in % at the dose shown (toxicity tests: loss of growth or viability). Neighbouring rows are from separate reports. ECn: concentration that inhibits the pathogen or its effect by n%.